{
  "source": "patent US11484534B2",
  "about": "“Methods for treating HCV” (priority 2013, dated 2022)",
  "assay_type_in_all_cases": "cell-based",
  "key": {"[1]": {"system": "HCV Replicon Subtype Genotype 1a"}, "[2]": {"system": "HCV Replicon Subtype Genotype 1b"}, "[3]": {"system": "HCV Replicon Subtype Genotype 3a", "conditions": "concentrations ≥100-fold over its EC50 value; GT3a NS3 protease replicon"}, "[4]": {"system": "HCV NS3 and NS5A variants", "assay": "Susceptibility of HCV variants found in the virologic failure patient, relative to wild-type replicon", "text": "One patient experienced virologic failure at treatment week 6."}},
  "data": [
    {"compound": "CC(C)(C)[C@@H]1NC(=O)O[C@@H]2CCC[C@H]2OC/C=C/C(F)(F)c2nc3ccccc3nc2O[C@@H]2C[C@@H](C(=O)N[C@]3(C(=O)NS(=O)(=O)C4(C)CC4)C[C@H]3C(F)F)N(C2)C1=O", "note": "[Compound 1]", "values": [
      {"measurement": "activity against NS5A inhibitor and NS5B inhibitor resistance-associated variants", "setting": "[1]; M28T, M28V, Q30D, Q30R, Y93C, Y93H, Y93N, L31V+Y93H, C316Y, M414T, Y448C, Y448H, S556G and S559G in GT 1a", "result": "potent activity"},
      {"measurement": "inhibitory activity against NS3 resistance-associated variants", "setting": "[1]; V36M, R155K, D168A and D168V in GT 1a (H77)", "result": "nearly equivalent to that against wild-type HCV replicon"},
      {"measurement": "activity against NS5A inhibitor and NS5B inhibitor resistance-associated variants", "setting": "[2]; L28T, Y93H, S282T, C316Y, Y448H and S556G in GT 1b", "result": "potent activity"},
      {"measurement": "inhibitory activity against NS3 resistance-associated variants", "setting": "[2]; T54A, R155K, D168V and V170A in GT 1b (Con-1)", "result": "nearly equivalent to that against wild-type HCV replicon"},
      {"measurement": "resistant colony selection", "setting": "[3]", "result": "selected very few colonies"}
    ]},
    {"compound": "COC(=O)N[C@H](C(=O)N1CCC[C@H]1c1nc2cc([C@H]3CC[C@H](c4cc5nc([C@@H]6CCCN6C(=O)[C@@H](NC(=O)OC)[C@@H](C)OC)[nH]c5cc4F)N3c3cc(F)c(N4CCC(c5ccc(F)cc5)CC4)c(F)c3)c(F)cc2[nH]1)[C@@H](C)OC", "note": "[Compound 2]", "values": [
      {"measurement": "increase in EC50 relative to that of the wild-type replicon", "setting": "[4]", "result": "> 5000", "unit": "fold"}
    ]}
  ]
}
